Percent effect of library compounds

The values are deposited in ChEMBL (CHEMBL3988442, “University of Dundee, Small-Polar-MMV Screening Library” (2021)).

Mtb cholesterol medium: 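Whole-cell growth test on Mycobacterium tuberculosis, read after 4 days in a medium based on cholesterol and the lipid DPPC; the read-out is not stated. Compounds at 500 µM. Direction is inferred from retests: higher values go with more growth inhibition. Size under these conditions: about 18,000 compounds, about 900 of them at 50% or above in at least one test.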
Mtb glucose medium: 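Whole-cell growth test on Mycobacterium tuberculosis, read after 3 days in glucose-containing 7H9 medium; the read-out is not stated. Tested at 500 µM. Higher reads as more growth inhibition (inferred: compounds with an IC50 in retests scored well above the rest). Of about 18,000 compounds tested this way, about 1,400 (7.9%) reached 50% or more in at least one test.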

Results are given as percent effect. The record does not define 0% and 100%; most values in the screen are far below 50% and negative numbers occur (in some assays of this library far below -100). Many other results are left out here, so strong results are more common than in the screen. A dash means the value is not listed here; it may have been measured.

compound,Mtb cholesterol medium,Mtb glucose medium
Cc1nnc(CNC(=O)C2CC(=O)N(C(C)(C)C)C2)o1 (centres unmarked),-,4.321
O=C(NCCCN1Cc2ccccc2C1)C1CCC1,-,27.27
OC[C@H]1CCCCN1CC(O)COCc1ccco1 (some centres unmarked),-,6.282
O=C(O)C1CN(Cc2ccc(CN3CCCCC3)s2)C1,-,-2.735
CNc1nc(NCCS(C)(=O)=O)ncc1Br,-,50.28
N#CC1CNCCO1 (centres unmarked),-,-9.076
CN(CCCO)C1CCN(C(=O)Nc2ccsc2)CC1,-,6.588
COCCN(C)CCNC(=O)c1cccc(I)c1,-,36.4
COCCc1noc([C@@H]2CN(CC(C)C)C[C@H]2CO)n1,-,2.889
CCCN1CCN(C(=O)Nc2ccc(OC)cc2)CC1,24.99,-
CS(=O)(=O)NCCC(=O)NC1CCc2ccccc2C1 (centres unmarked),-,24.94
CCS(=O)(=O)CC(C)NCc1ccco1 (centres unmarked),-,0.7801
CCc1cc(C(=O)NCC(=O)C(C)C)[nH]n1,-,-2.047
Cc1csc(CCNC(=O)C(C)n2cccn2)n1 (centres unmarked),-,18.39
NCCNS(=O)(=O)c1ccc(F)cc1C(F)(F)F,-,-10.88
c1cc2nnnn2nc1NC1CCN(C2CC2)CC1,-,-3.509
COc1ccc(OC)c(NC(=O)COCC(F)(F)F)c1,-,66.49
Cc1ccc(CNC(=O)c2cnn(C)c2)cc1F,-,60.28
CCC1CN(C(=O)[C@H](O)c2ccccc2Cl)CCO1 (some centres unmarked),-,23.18
CCCC(C)N1CCN(Cc2nc(COC)no2)CC1 (centres unmarked),18.34,-
Cn1nnnc1SCCOc1cccc(F)c1,69.07,66.35
CC(C)n1cc(NC(=O)c2cccnc2N(C)C)cn1,-,20.6
CNS(=O)(=O)N1CCc2ccccc2C1,9.897,21.92
CN(C)CCSCc1noc(C2CCOCC2)n1,-,4.133
Cc1cc(C)c(C#N)c(N2C[C@@H]3CCN(C)[C@@H]3C2)n1,-9.268,-0.5764
CN(Cc1cccn1C)C(=O)c1ccccc1F,-,58.97
Clc1ccc(N2CCN(Cc3ncc[nH]3)CC2)nc1,22.62,65.88
O=C(CCNCCO)c1ccccc1,99.82,97.02
Cn1ccnc1CN1CCN(C2=NCC(C)(C)S2)CC1,-,0.05506
N#Cc1cccc([C@H]2C[C@H](N)C2)c1,-,33.13
Cc1ccc(NCc2cc[nH]n2)cc1S(C)(=O)=O,-10.26,-6.791
Cc1nc(C)c(C(=O)N2CC[C@H](CO)[C@H](O)C2)s1,-,7.253
Cc1ccccc1C(=O)NCCN1CCN(C)CC1,-0.4615,-
CCCNC(=O)CSCc1nc(-c2ccccc2)no1,76.68,80.63
Cc1cc(C)cc(C(=O)NCCCNS(C)(=O)=O)c1,-50.28,-
CSc1ccc(CN(C)CCC(N)=O)cc1,-,8.112
Cn1ccnc1CCNC(=O)CCN1CCCCC1=O,-,-4.319
CCN1CCN(CC2CCNCC2)CC1,-4.38,-
Nc1ccc(CN2CCN(CCO)CC2)cn1,-,1.079
CO[C@H]1CNCC1NC(=O)c1sc(C)nc1C (some centres unmarked),-,-19.08
CC[C@H](N)C(=O)N(C)Cc1cccc(OC(F)(F)F)c1,-,66.98
CN(CCn1cccn1)c1ncccc1S(N)(=O)=O,-,4.563
Cc1cc(F)cc(NCc2ncc[nH]2)c1,-,45.42
CC(C)(C)C(=O)N1CCN2C(=O)NCC2C1 (centres unmarked),-,4.709
Cc1cc(NC2CCN(C)C2=O)nc2ccccc12 (centres unmarked),-11.04,-
Cc1noc(OCCOCC2CCCO2)n1 (centres unmarked),18.39,-
COC[C@@H]1CNC[C@H]1C(=O)NC1CC1,-,-6.785
COCC1(C(=O)N2CCCC(CC(N)=O)C2)CCC1 (centres unmarked),-,-0.1719
Cc1ccc(NC(=O)Cn2ccc(=O)n(C)c2=O)nc1,3.402,-
O=C(Cc1cccc(O)c1)N1CCc2cnccc21,15.08,-
CCNC(=O)c1cc(-c2ccc(F)cc2)n[nH]1,69.54,69.42
COc1ccccc1NC(=O)CCN1CCC(O)CC1,-,0.0727
CC(C)CN1C(=O)C(N)c2ccccc21 (centres unmarked),73.41,65.8
CC(C)N(CC(N)=O)C(=O)COc1ccc(F)cc1Br,-,33.05
CSc1cc(NC(=O)NCCn2ccnc2)ccn1,7.597,7.957
CSCC(=O)N1C[C@@H](CN2CCCCCC2)[C@@H](CO)C1,-,-48.75
CCOCCN1CCN(Cc2cnn(C)c2)CC1C (centres unmarked),-10.49,-
CCNc1ncc(C(=O)N2CCCc3sccc3C2)s1,-6.316,-2.619
CCc1nc(CNc2ncccc2S(N)(=O)=O)cs1,23.47,34.34
Cc1ccnc(NC(=O)C2SCCS2)n1,-,-0.535
N#Cc1ccnc(N2CCCC(O)C2)c1 (centres unmarked),-,13.18
CN(C)c1cc(CNC(=O)c2ccccn2)ccn1,-,22.94
CCC(C)C(=O)NCCNc1cnccn1 (centres unmarked),-,18.26
CCCc1cc(CN(C)C(=O)c2nc(C)c[nH]2)n[nH]1,13.76,41.79
Cc1ccc(CNC(=O)NCCO)cc1,-,16.42
Cc1cc(C)c(C(=O)NCC(O)C2CCCC2)c(=O)[nH]1 (centres unmarked),-,-19.63

The first 6 entries again:

| compound | Mtb cholesterol medium | Mtb glucose medium |
|---|---|---|
| `Cc1nnc(CNC(=O)C2CC(=O)N(C(C)(C)C)C2)o1` (centres unmarked) | - | 4.321 |
| `O=C(NCCCN1Cc2ccccc2C1)C1CCC1` | - | 27.27 |
| `OC[C@H]1CCCCN1CC(O)COCc1ccco1` (some centres unmarked) | - | 6.282 |
| `O=C(O)C1CN(Cc2ccc(CN3CCCCC3)s2)C1` | - | -2.735 |
| `CNc1nc(NCCS(C)(=O)=O)ncc1Br` | - | 50.28 |
| `N#CC1CNCCO1` (centres unmarked) | - | -9.076 |